# Screening data, single-dose tests

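Phenotypic screen: M. tuberculosis growth, glucose 7H9 medium, 3 days; the read-out is not stated. Compounds at 500 µM. Higher reads as more growth inhibition (inferred: compounds with an IC50 in retests scored well above the rest). About 18,000 compounds were tested under these conditions; 7.9% (about 1,400) showed 50% or more at least once.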

Values are the deposited “Percent Effect”, in %.
The controls that fix the scale are not given in the record; negative values are as filed.
This is part of a subset picked to be rich in strong results.

* O=C(Nc1cc(Cl)c(Cl)cn1)C1COCCO1 (stereo not shown) | 2.381%
* COc1ccc(CNC(=O)c2cnsn2)cc1 | -15.02%
* COc1ncccc1-c1csc(NCCSC)n1 | 50.32%
* CC1COCCN1C(=O)NCc1nnc2ccccn12 (stereo not shown) | -0.355%
* COCc1nn(Cc2csc(C(C)C)n2)c(=O)o1 | 71%
* Nc1cnn(CC(=O)NC2CCCC2)c1 | 22.78%
* CCC(C)c1cc(C(=O)Nc2ncccc2O)on1 (stereo not shown) | 76.68%
* COc1ccc(OCCN2CCC(O)CC2)cc1 | 4.882%
* CCn1cc(C(=O)NC(C)c2nc(C3CC3)no2)cn1 (stereo not shown) | 29.85%
* CN(C(=O)COCC(F)(F)F)C1CCS(=O)(=O)C1 (stereo not shown) | -0.4097%
* COc1cc(CN)cc(Cl)c1OC | 7.281%
* COCCN1CCC(NC(=O)c2nccnc2N)C1 (stereo not shown) | 4.441%
* CN(C)C(=O)C(C)(N)C(F)(F)F (stereo not shown) | 1.186%
* O=C1CN(CCOc2ccc3ccccc3c2)CCN1 | 32.45%
* CCN(CCO)Cc1cc(=O)n2cc(C)ccc2n1 | -2.805%
* COC(=O)Nc1ccc(C(=O)N2CCCC2)cc1 | -13.76%
* CCOCCOc1cc(C)ccc1CN | 50.95%
* Cn1cnnc1SCCNC(=O)c1ccncc1F | 4.17%
* NCCNC(=O)c1nc(-c2ccccc2)no1 | 11.72%
* NC1CCc2nccn2C1 (stereo not shown) | 2.42%
* O=C(CN1CCN(C(=O)c2ccco2)CC1)NC1CC1 | 13.24%
* CN(CC(C)(C)S(C)(=O)=O)S(=O)(=O)c1ccccc1Cl | 25.03%
* CNCCCN1C(=O)c2ccccc2C1=O | 2.916%
* C=C(Cl)CNC(=O)CNC(=O)Cc1ccc(O)cc1 | 15.92%
* Cc1c(Br)c(C(=O)NC(C)C)nn1C | 24.52%
* C=C(C)c1nc(C#N)c(NCc2ccco2)o1 | 84.11%
* CC(C)(CNc1nc2ccccc2o1)C(N)=O | 31.07%
* CCC(c1cccnc1)N(C)C(=O)CNC (stereo not shown) | 7.169%
* Cc1cccc(NCCCNC(=O)C(C)C)n1 | 9.837%
* CC(=O)N1CCC(NC(=O)c2cc(C)c(C)s2)CC1 | -8.279%
* Cc1nnc(CN2CCCSCC2)o1 | 28.81%
* O=C1Nc2ccccc2C1O (stereo not shown) | 0.1265%
* O=C(c1cnc(O)cn1)N1CCOC2(CCCC2)C1 | 6.888%
* COC(=O)CSc1nc2cc(F)c(F)cc2[nH]1 | 14.51%
* CNC(=O)Nc1ccc2c(c1)C(=O)N(C)C2=O | 5.148%
* CSCc1noc(CN2C[C@H](C3CC3)[C@@H](N)C2)n1 | 17.45%
* CN(C)C(=O)c1csc(N2CCCCC2)n1 | 53.91%

Data taken from ChEMBL document CHEMBL3988442, “University of Dundee, Small-Polar-MMV Screening Library” (2021).